Target: Human immunodeficiency virus type 1 reverse transcriptase (Human immunodeficiency virus 1, UniProt Q72547)
Experiment: Inhibition of wild type HIV-1 reverse transcriptase assessed as reduction of biotin-dUTP incorporation into […] using ABTS as substrate incubated for 1 hrs by ELISA analysis

Cc1cc(C#N)cc(C)c1Oc1nc(Nc2ccc(C#N)cc2)nc(N)c1Br [ETRAVIRINE]
IC50: 8 nM

Source: ChEMBL document CHEMBL5331067, “Disubstituted pyrimidine-5-carboxamide derivatives as novel HIV-1 NNRTIs: Crystallographic overlay-based molecular design, synthesis, and biological evaluation” (Eur J Med Chem, 2023)
